Experiments:
[1] = molecular target: SARS-CoV-2 receptor binding domain, omicron subvariant BA5 (RBDBA5) (SARS-CoV-2) (UniProt P0DTC2); experiment: SPR
[2] = molecular target: SARS-CoV-2 receptor binding domain, wild type (RBD_(D614G)) (SARS-CoV-2) (UniProt P0DTC2); experiment: SPR

antibody 10-40 was tested, and the Kd [1] was 0.266 nM, the koff [1] was 0.000212 s⁻¹ and the Kd [2] was 0.0143 nM. The koff [2] was 4.23e-05 s⁻¹.

— PMC10235760
